{"source": "patent US20120225135A1", "about": "(priority 2010, published 2012)", "tested_on": "E. coli", "experiment": "Washing of cut lettuce, E. coli", "conditions": "old system, chlorine at 100-200 ppm dosed as sodium hypochlorite 12.5%"}
{"substance": "chlorine", "values": [{"measurement": "E. coli on cut lettuce", "value": "not always zero"}]}
